# PubChem BioAssay AID1224833, University of Georgia – 2016
# Test: 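Host factors restraining rotavirus as candidate antiviral genes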 (primary screen)
# Cell system: monkey MA104 kidney cells
# Reagent: siRNA pool against human genes, 50 nM
# Time to read-out: 48 h knock-down before infection; read 24 h after infection
# Treatment: infection with rotavirus strain RV3 two days after transfection; infectious dose for this stage not given
# Read-out: 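z-score of rotavirus antigen signal per well, from a fluorescent immunoassay, relative to non-targeting control wells on the same plate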
# Scale: z-score vs non-targeting control: higher = more rotavirus replication than with non-targeting control
# Active means: In these data the active calls have z-score vs non-targeting control at about -1 or lower, or at about 1 or higher
# Meaning of the calls: active = z-score beyond 1 either way; inactive = z-score within 1 of zero
# Here is a random part of about 12,000 reagents. About 5,600 of all reagents (46%) count as active. 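Active calls cover z-scores past 1 in both directions, so they include lowered as well as raised rotavirus replication.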 A number with no mark means an inactive call.
gene,z-score vs non-targeting control
GCC2,-1.94 (active)
ADAM10,-0.904
MRPS16,0.433
ENPP4,0.998
HBM,-1.82 (active)
PIN1,1.47 (active)
NUP155,0.0002
GTSF1L,-1.69 (active)
LAGE3,-0.0753
UQCR10,-0.483
SUSD1,-2.98 (active)
LTBP2,0.949
ADCY9,0.981
ELAC2,-1.15 (active)
TSPAN15,-0.445
ZBTB41,-0.363
FST,-1.22 (active)
NUP54,-0.818
ZNF671,0.887
SHMT2,-2.66 (active)
ADAM2,-1.35 (active)
TATDN2,0.436
TAF12,0.512
FSTL3,0.819
ERC1,0.834
RASA3,-1.57 (active)
KAT6B,-0.72
AQP9,-1.81 (active)
TMEM237,-1.21 (active)
ACTRT1,1.06 (active)
CLDN11,-0.24
TYMSOS,-0.601
OR4P4,0.981
TMEM167B,-0.777
SLC35D1,-3.11 (active)
SPINK8,1.51 (active)
RORA,-0.528
PSMC5,2.05 (active)
ATP2A2,-1.18 (active)
MMP26,2.1 (active)
RFLNB,-0.962
CLLU1,0.0097
CALB1,-2.44 (active)
ZNF415,-1.26 (active)
FRRS1,1.22 (active)
ARID2,-0.917
CNOT10,-0.543
NXPE3,-1.24 (active)
SFN,-0.471
DEFB107A,-0.188
ZNF441,0.352
NR5A2,1.52 (active)
FANK1,-1.56 (active)
STMN3,-0.452
EYS,-0.941
STXBP1,-0.556
UBQLN1,-1.04 (active)
OR12D3,0.179
SLC17A4,1.33 (active)
PLEKHJ1,-0.863
CA9,-0.866
YAF2,0.899
SCAP,-1.48 (active)
ACBD4,-2.44 (active)
HS3ST4,-1.31 (active)
DLL3,0.734
LMO4,1.29 (active)
SLC25A39,1.89 (active)
TSPAN1,2.03 (active)
TMEM92,0.646
PLEKHA4,0.621
LCN6,-1.26 (active)
CCNA1,1.42 (active)
FOS,-1.63 (active)
C2CD5,-1.58 (active)
ATG9A,0.409
SPEF2,0.46
XRCC3,-1.06 (active)
PRSS2,0.777
PCDHGA3,0.14
REG1B,-1.1 (active)
LCA5,1.11 (active)
PTBP2,-0.062
RPGR,-0.597
RNASE11,-1.29 (active)
PPM1N,-0.824
VNN1,-0.937
SLC30A7,-1.14 (active)
SPIN3,-3.74 (active)
KPNA5,-1.26 (active)
PSMA4,2.16 (active)
KBTBD11,2.52 (active)
AGO3,1.01 (active)
RND1,-0.637
EGR3,1.05 (active)
SQSTM1,-0.625
CEP72,0.917
PARM1,1.08 (active)
CEACAM1,0.466
SIDT1,-1.14 (active)
RADX,0.555
TRNP1,-2.08 (active)
GUCY1A1,-1.26 (active)
TTLL4,-0.569
DMRTC1,0.333
EID1,-0.888
UTP20,0.566
CELSR3,-0.809
ZBTB22,-0.0595
SMG7,-0.862

Reformatted: results already given.
gene	z-score vs non-targeting control
HS3ST4	-1.31 (active)
DLL3	0.734
LMO4	1.29 (active)
SLC25A39	1.89 (active)
TSPAN1	2.03 (active)
TMEM92	0.646
PLEKHA4	0.621
LCN6	-1.26 (active)
CCNA1	1.42 (active)
FOS	-1.63 (active)
